Pooled drug test results. Numbers come from NIAID ChemDB, via PubChem.

All rows: tests in culture; organism: HIV-1

Blank or dashed fields: not listed here.

smiles | endpoint | method | cells | conditions | mutations | strain or isolate | value
CC(C)CNC(=O)C(F)(F)C(=O)[C@H](Cc1ccc(OCc2ccccc2)cc1)NC(=O)[C@@H](NC(=O)OCc1ccccc1)C(C)C | EC50 | cytopathic effect / MTT | MT-4 | - | - | RF | 0.32 µM
Cc1cn([C@H]2C=C[C@@H](CO)O2)c(=O)[nH]c1=O | EC50 | trypan blue | MT-4 | 5 d | - | IIIB | 0.65 µM
Cc1ccnc2c1NC(=O)c1cccnc1N2C1CC1 | EC50 | p24 / ELISA | PBMC | - | - | D148/88 | 0.368 µM
CC(C)[C@H](NC(=O)OCc1ccccc1)C(=O)N[C@@H](Cc1ccccc1)[C@@H](O)[C@H](O)[C@H](Cc1ccccc1)NC(=O)[C@@H](NC(=O)OCc1ccccc1)C(C)C | EC50 | cytopathic effect / MTT | MT-4 | - | - | IIIB | 0.02–0.4 µM
Cc1cc(C)c(-n2nnnc2SCC(=O)Nc2ccccc2[N+](=O)[O-])c(C)c1 | EC50 | p24 | MT-4 | 50% human serum | - | - | <0.09 µM
O=C(/C=C/c1ccc(O)cc1)OC[C@H]1O[C@@H](Oc2c(-c3ccc(O)cc3)oc3cc(O)cc(O)c3c2=O)[C@H](O)[C@@H](O)[C@@H]1O | EC50 | ELISA | C8166 | - | - | MN | 8 µg/mL
O=C(OC1OC2COC(=O)c3cc(Oc4c(C(=O)OC5C(O)OC6COC(=O)c7cc(O)c(O)c(O)c7-c7c(cc(O)c(O)c7O)C(=O)OC6C5OC(=O)c5cc(O)c(O)c(O)c5)cc(O)c(O)c4O)c(O)c(O)c3-c3c(cc(O)c(O)c3O)C(=O)OC2C(OC(=O)c2cc(O)c(O)c(O)c2)C1O)c1cc(O)c(O)c(O)c1 | EC50 | - | - | - | - | - | 1–10 µg/mL
C[C@H](Cn1cnc2c(N)ncnc21)OCP(=O)(OCOC(=O)NC(C)(C)C)OCOC(=O)NC(C)(C)C | EC50 | cytopathic effect / MTT | MT-2 | - | - | IIIB | >10 µM
COc1oc([C@H]2C/C(=C/C(C)=C/c3ccc(C(F)(F)F)cc3Cl)CO2)c(C)c(=O)c1C | EC50 | fluorescence | PBMC + LC5-RIC | - | - | LAI | 0.0224 µM
Cc1ccc(-c2ccc3c(c2)C=C(C(=O)Nc2ccc(C[N+](C)(C)C4CCOCC4)cc2)CCC3)cc1 | EC90 | p24 | PBMC | - | - | JR-FL R5 | 0.237 µM
COC(=O)C(=O)OC1(C(=O)O)C[C@@H](OC(=O)/C=C/c2ccc(O)c(O)c2)C(O)[C@H](OC(=O)/C=C/c2ccc(O)c(O)c2)C1 | EC50 | cytopathic effect / neutral red | MT-2 | - | - | LAI | 7 µM
CCCc1cc(=O)oc2c3c(c4c(c12)OC(C)(C)C=C4)O[C@H](C)[C@@H](C)[C@@H]3O | EC50 | cytopathic effect / XTT | - | - | - | - | 0.2 µM
O=C(C(=O)N1CCC(=C2c3ccc(Cl)cc3CCc3cccnc32)CC1)c1c[nH]c2c(Br)ncc(F)c12 | EC50 | luciferase / reporter gene / single cycle | MT-2 | - | - | LAI | >0.5 µM
COc1ccc2c(c1)N(C(=O)OC(C)C)[C@@H](CSC)C(=S)N2 | EC50 | syncytia | CEM | - | - | IIIB | 0.001 µM
CC(C)[C@H](NC(=O)OCc1ccccc1)C(=O)N[C@@H](Cc1ccccc1)C(O)[C@H](Cc1ccccc1)NC(=O)[C@@H](NC(=O)OCc1ccccc1)C(C)C | EC50 | cytopathic effect / MTT | MT-4 | - | - | IIIB | 0.02–0.4 µM
Nc1nc(NC2CC2)c2ncn([C@H]3C=C[C@@H](CO)C3)c2n1 | EC50 | cytopathic effect / MTT | MT-2 | - | - | LAI WT | 2.5 µM
CN(C)C=Nc1ccn([C@H]2C[C@H](F)[C@@H](CO)O2)c(=O)n1 | EC50 | p24 | CEM + CEM-SS | - | - | RF | 0.8 µg/mL
Cc1cn([C@H]2C[C@H](N=[N+]=[N-])[C@@H](CO)O2)c(=O)[nH]c1=O | EC50 | syncytia | CEM | - | - | IIIB | 0.002 µM
COC(=O)[C@H](C)NP(=O)(OC[C@@H]1C=C[C@H](n2cc(C)c(=O)[nH]c2=O)O1)Oc1ccccc1 | EC50 | syncytia | CEM | 4 d | - | IIIB | 0.18 µM
COc1ccc(/C=C2\CN(C)CC3=C2OC(N)=C(C#N)C3c2ccc(OC)cc2)cc1 | EC50 | cytopathic effect / XTT | CEM + CEM-SS | - | - | RF | >30.4 µM
O=P(O)(O)Cc1cc2c(O)c(c1)Sc1cc(CP(=O)(O)O)cc(c1O)Sc1cc(CP(=O)(O)O)cc(c1O)Sc1cc(CP(=O)(O)O)cc(c1O)S2 | EC50 | luciferase | TZM-bl + MT-2 | - | NNRTI-resistant | - | 1 µM
CN1C/C(=C\c2cccs2)C(O)/C(=C/c2cccs2)C1 | EC50 | cytopathic effect / XTT | CEM + CEM-SS | - | - | RF | >126 µM
CC[C@H](C)[C@H](NC(=O)[C@@H](C[C@H](O)[C@H](CC1CCCCC1)NC(=O)OC(C)(C)C)C(C)C)C(=O)NCc1cccnc1 | EC50 | p24 | MOLT-4 | - | - | IIIB | 0.04–3 µM
Cc1cc(C)c(-n2nnnc2SCC(=O)Nc2ccc(C(N)=O)cc2C)c(C)c1 | EC50 | p24 | MT-4 | 10% FBS | - | - | <0.031 µM
COc1oc([C@H]2C/C(=C/C(C)=C/c3ccc(C(C)(C)C)cc3)CO2)c(C)c(=O)c1C | EC50 | fluorescence | PBMC + LC5-RIC | - | - | LAI | 1.261 µM
CN1C/C(=C\c2cccs2)C2=NN(C)C(c3cccs3)C2C1 | EC50 | cytopathic effect / XTT | CEM + CEM-SS | - | - | RF | >200 µM
C=C1OC(C(=O)O)C(/C(=C/C(=O)O)C(=O)OC2C3COC(=O)c4cc(O)c(O)c(O)c4-c4c(cc(O)c(O)c4O)C(=O)OC2C(O)C(OC(=O)c2cc(O)c(O)c(O)c2)O3)c2c1cc(O)c(O)c2O | EC50 | cytopathic effect | MT-4 | - | - | - | 10.1 µM
Cc1ccc(/C=C2\CN(C)CC3=C2NC(=S)NC3c2ccc(C)cc2)cc1 | EC50 | cytopathic effect / XTT | CEM + CEM-SS | - | - | RF | >27.6 µM
Cc1cn([C@H]2C[C@H](N=[N+]=[N-])[C@@H](CO)O2)c(=O)[nH]c1=O | EC50 | ELISA | C8166 | - | - | MN | 0.016 µM
CC(C)=CCN1c2cc(Cl)cc3[nH]c(=S)n(c23)C[C@@H]1C | EC50 | - | MT-4 | - | RT-L74V Y181C | - | >3 µM
O=c1c(O[C@@H]2O[C@H](CO)[C@@H](O)[C@H](O)[C@H]2O)c(-c2ccc(O)cc2)oc2cc(O)cc(O)c12 | EC50 | ELISA | C8166 | - | - | MN | 8 µg/mL
COc1oc([C@H]2C/C(=C/C(C)=C/c3ccc(F)cc3F)CO2)c(C)c(=O)c1C | EC50 | fluorescence | PBMC + LC5-RIC | - | - | LAI | 0.0143 µM
O=C1c2ccccc2C2(c3ccccc3)SCCN12 | EC50 | MTT | MT-2 | - | - | IIIB | 0.68 µM
COc1oc([C@H]2C/C(=C/C(C)=C/c3ccccc3Cl)CO2)c(C)c(=O)c1C | EC50 | fluorescence | PBMC + LC5-RIC | - | - | LAI | 0.561 µM
OCC1OC(OCCc2ccccc2)C(O)C(O)C1O | EC50 | ELISA | C8166 | - | - | MN | >250 µg/mL
Cc1cn([C@H]2C[C@H](N=[N+]=[N-])[C@@H](CO)O2)c(=O)[nH]c1=O | EC50 | p24 | MT-2 | - | - | NL4-3 | 0.002 µM
Cc1ccnc2c1NC(=O)c1cccnc1N2C1CC1 | EC50 | cytopathic effect / MTT | MT-4 | - | RT-K103N Y181C | - | >30 µM
O=C(CSc1nnnn1-c1c(Cl)cccc1Cl)Nc1ccccc1[N+](=O)[O-] | EC50 | p24 | MT-4 | 50% human serum | - | - | <0.062 µM
Nc1nc2c(ncn2[C@H]2CO[C@@H](CO)O2)c(=O)[nH]1 | EC50 | cytopathic effect / MTT | MT-2 | - | RT-Q151M A62V | - | >50 µM
Cc1c(O)cccc1C(=O)N[C@@H](CSc1ccccc1)[C@H](O)CN1C[C@H]2CCCC[C@H]2C[C@H]1C(=O)NC(C)(C)C | EC90 | p24 | PBMC | - | - | BAL R5 | 0.105 µM
O=c1[nH]cnc2c1ncn2[C@H]1CC[C@@H](CO)O1 | EC50 | syncytia | CEM | - | - | IIIB | 5 µM
COc1oc([C@H]2C/C(=C/C(C)=C/c3ccc(N(C)C)cc3)CO2)c(C)c(=O)c1C | EC50 | fluorescence | PBMC + LC5-RIC | - | - | LAI | 0.0146 µM
COC[C@H](NC(=O)C(F)(F)C(=O)[C@H](Cc1ccc(OCc2ccccc2)cc1)NC(=O)[C@@H](NC(=O)OCc1ccccc1)C(C)C)C(C)C | EC50 | cytopathic effect / MTT | MT-4 | - | - | RF | <0.01 µM
O=C(CSc1nnnn1-c1cc(Cl)ccc1Cl)Nc1ccccc1[N+](=O)[O-] | EC95 | p24 | MT-4 | 50% human serum | - | - | 1.25 µM
COc1oc([C@H]2C/C(=C/C(C)=C/c3cccc(C(F)(F)F)c3)CO2)c(C)c(=O)c1C | EC90 | fluorescence | PBMC + LC5-RIC | - | - | LAI | 0.2422 µM
Cc1ccc(-n2nnnc2SCC(=O)Nc2ccccc2[N+](=O)[O-])c(Br)c1 | EC50 | p24 | MT-4 | 50% human serum | - | - | <0.062 µM
Cc1cn([C@H]2C[C@H](N=[N+]=[N-])[C@@H](CO)O2)c(=O)[nH]c1=O | EC50 | p24 | PBMC | - | - | JR-FL R5 | 0.01 µM

Repeating the final 5 entries:

smiles | endpoint | method | cells | conditions | mutations | strain or isolate | value
COC[C@H](NC(=O)C(F)(F)C(=O)[C@H](Cc1ccc(OCc2ccccc2)cc1)NC(=O)[C@@H](NC(=O)OCc1ccccc1)C(C)C)C(C)C | EC50 | cytopathic effect / MTT | MT-4 | - | - | RF | <0.01 µM
O=C(CSc1nnnn1-c1cc(Cl)ccc1Cl)Nc1ccccc1[N+](=O)[O-] | EC95 | p24 | MT-4 | 50% human serum | - | - | 1.25 µM
COc1oc([C@H]2C/C(=C/C(C)=C/c3cccc(C(F)(F)F)c3)CO2)c(C)c(=O)c1C | EC90 | fluorescence | PBMC + LC5-RIC | - | - | LAI | 0.2422 µM
Cc1ccc(-n2nnnc2SCC(=O)Nc2ccccc2[N+](=O)[O-])c(Br)c1 | EC50 | p24 | MT-4 | 50% human serum | - | - | <0.062 µM
Cc1cn([C@H]2C[C@H](N=[N+]=[N-])[C@@H](CO)O2)c(=O)[nH]c1=O | EC50 | p24 | PBMC | - | - | JR-FL R5 | 0.01 µM

Lines come from different laboratories, so protocols vary. a–b is a range or a potency band. ECn is the concentration giving n% inhibition of infection, replication or growth.